Measured values published in US6906198B1, “Antipicornaviral compounds, their preparation and use” (Agouron Pharmaceuticals, Inc., priority 1998, dated 2005).

Key:
[1] = system: Coxsackievirus type B3 (CVB-3); assay: Anticoxsackieviral cell culture assay (XTT), CVB-3; type: cell-based; conditions: therapeutic index CC50/EC50, CVB-3
Protocol: Anticoxsackieviral Cell Culture Assay
Coxsackievirus types A-21 (CAV-21) and B3 (CVB-3) were purchased from American Type Culture Collection (ATCC, Rockville, Md.). Virus stocks were propagated and antiviral assays were performed in H1-HeLa cells (ATCC). Cells were grown in minimal essential medium with 10% fetal bovine serum (Life Technologies, Gaithersburg, Md.).
The ability of compounds to protect cells against either CAV-21 or CVB-3 infection was measured by the XTT dye reduction method. This method is described in Weislow et al., J. Natl. Cancer Inst. 1989, vol. 81, 577-586. H1-HeLa cells were infected with CAV-21 or CVB-3 at a multiplicity of infection (m.o.i.) of 0.025 or 0.075, respectively, or mock-infected with medium only. H1-HeLa cells were plated at 4×10^4 cells per well in a 96-well plate and incubated with appropriate concentrations of the test compound. One day (CVB-3) or two days (CAV-21) later, XTT/PMS was added to test plates and the amount of formazan produced was quantified spectrophotometrically at 450/650 nm. The EC50 was calculated as the concentration of compound that increased the formazan production in compound-treated, virus-infected cells to 50% of that produced by compound-free, uninfected cells. […] The therapeutic index (TI) was calculated by dividing the CC50 by the EC50. […]

HRV serotype 38 = assay: Antirhinoviral H1-HeLa cell culture assay (XTT), HRV-38; type: cell-based, human rhinovirus; conditions: therapeutic index CC50/EC50, HRV (38)
Protocol: (§1) Antirhinoviral H1-HeLa Cell Culture Assay
(§2) In this cell protection assay, the ability of compounds to protect cells against HRV infection was measured by the XTT dye reduction method, which is described in Weislow et al., J. Natl. Cancer Inst. 1989, vol. 81, 577-586.
(§3) H1-HeLa cells were infected with HRV-14 at a multiplicity of infection (m.o.i.) of 0.13 (virus particles/cell) or mock-infected with medium only. Infected or mock-infected cells were resuspended at 8×10^5 cells per mL, and incubated with appropriate concentrations of the compounds to be tested. Two days later, XTT/PMS was added to test plates and the amount of formazan produced was quantified spectrophotometrically at 450/650 nm. The EC50 value was calculated as the concentration of compound that increased the percentage of formazan production in compound-treated, virus-infected cells to 50% of that produced by compound-free, mock-infected cells. The 50% cytotoxic dose (CC50) was calculated as the concentration of compound that decreased the percentage of formazan produced in compound-treated, mock-infected cells to 50% of that produced by compound-free, mock-infected cells. The therapeutic index (TI) was calculated by dividing the CC50 value by the EC50 value.
(§4) All strains of human rhinovirus (HRV) for use in this assay were purchased from American Type Culture Collection (ATCC), except for HRV serotype-14 (produced from the infectious cDNA clone constructed by Dr. Robert Rueckert, Institute for Molecular Virology, University of Wisconsin, Madison, Wis.). HRV stocks were propagated and viral assays were performed in H1-HeLa cells (ATCC). Cells were grown in minimal essential medium with 10% fetal bovine serum, available from Life Technologies (Gaithersburg, Md.).
(§5) The compounds were tested against control compounds WIN 51711, WIN 52084, and WIN 54954 (obtained from Sterling-Winthrop Pharmaceuticals), Pirodavir (obtained from Janssen Pharmaceuticals), and Pleconaril (prepared according to the method described in Diana et al., J. Med. Chem 1995, vol. 38, 1355). […]

HRV serotype 12 = assay: Antirhinoviral H1-HeLa cell culture assay (XTT), HRV-12; type: cell-based, human rhinovirus; conditions: therapeutic index CC50/EC50, HRV (12)
Protocol: as §1, §2, §3, §4
(§6) The compounds were tested against control compounds WIN 51711, WIN 52084, and WIN 54954 (obtained from Sterling-Winthrop Pharmaceuticals), Pirodavir (obtained from Janssen Pharmaceuticals), and Pleconaril (prepared according to the method described in Diana et al., J. Med. Chem 1995, vol. 38, 1355). Antiviral data obtained for the test compounds are shown in Tables 1 and 3, where all data are for HRV serotype-14 unless otherwise noted in parentheses.

HRV serotype 10 = assay: Antirhinoviral H1-HeLa cell culture assay (XTT), HRV-10; type: cell-based, human rhinovirus; conditions: therapeutic index CC50/EC50, HRV (10)
Protocol: as §1, §2, §3, §4, §6

HRV serotype 1A = assay: Antirhinoviral H1-HeLa cell culture assay (XTT), HRV-1A; type: cell-based, human rhinovirus; conditions: therapeutic index CC50/EC50, HRV (1A)
Protocol: as §1, §2, §3, §4, §6

HRV serotype 25 = assay: Antirhinoviral H1-HeLa cell culture assay (XTT), HRV-25; type: cell-based, human rhinovirus; conditions: therapeutic index CC50/EC50, HRV (25)
Protocol: as §1, §2, §3, §4, §5

HRV serotype 13 = assay: Antirhinoviral H1-HeLa cell culture assay (XTT), HRV-13; type: cell-based, human rhinovirus; conditions: therapeutic index CC50/EC50, HRV (13)
Protocol: as §1, §2, §3, §4, §6

HRV serotype 9 = assay: Antirhinoviral H1-HeLa cell culture assay (XTT), HRV-9; type: cell-based, human rhinovirus; conditions: therapeutic index CC50/EC50, HRV (9)
Protocol: as §1, §2, §3, §4, §5

HRV serotype 87 = assay: Antirhinoviral H1-HeLa cell culture assay (XTT), HRV-87; type: cell-based, human rhinovirus; conditions: therapeutic index CC50/EC50, HRV (87)
Protocol: as §1, §2, §3, §4, §5

In the case of `CCOC(=O)/C=C/[C@H](C[C@@H]1CCNC1=O)NC(=O)[C@@H](CC(=O)[C@@H](NC(=O)c1cc(C)on1)C(C)C)Cc1ccc(F)cc1` [(B-2), Ethyl-3-{(5′-Methylisoxazole-3′-carbonyl)-L-ValΨ(COCH2)-L-(4-F-Phe)-L-((S)-Pyrrol-Ala)}-E-Propenoate], the TI [1] is reported as over 555, the TI (HRV serotype 38) is reported as over 1428 and the TI (HRV serotype 12) is reported as over 2000. It also gave a TI (HRV serotype 10) of over 5000, a TI (HRV serotype 1A) of over 5000 and a TI (HRV serotype 25) of over 3333. The TI (HRV serotype 13) was over 10000, the TI (HRV serotype 9) was over 16666 and the TI (HRV serotype 87) was over 1666.
